This is an account of results in paper doi:10.1101/2025.02.16.638509 (bioRxiv, 2025).

This series concerns the molecule itself. Kind of series: fluorescence polarisation.

Usually Kd stands for the constant that tells how readily two partners part at equilibrium. A higher Kd goes with weaker binding.

B1: Orf9b Delta variant (T60A), refolded (natural protein)
chain: not shown
In turn, B1 gave a Kd of 12 µM.
